A mixed list of measured activities; the numbers were collected in NIAID ChemDB.

Common to all: tests in culture; species: HIV-1; read-out: EC50

Rows are shuffled and stem from different studies. An empty or dashed field is not shown. Two numbers with a dash give a range or band. ECn: concentration that inhibits the pathogen or its effect by n%.

compound	method	cell line	setting	mutations	strain	value
Cc1nnc(CN(CCN(C)C)C[C@H](O)[C@@]23CC[C@]4(C)[C@H](CC[C@@H]5[C@@]6(C)CC[C@H](OC(=O)[C@H]7C[C@@H](C(=O)O)C7(C)C)C(C)(C)[C@@H]6CC[C@]54C)C2=C(C(C)C)C(=O)C3)o1	p24 / ELISA	MT-2			92HT599	<1 µM
COc1c(-c2cc(C)[nH]n2)c(O)c(S(=O)(=O)OC2CCCC2)c2occc12	cytopathic effect / MTS	CEM-SS			RF	0.000047 µM
CC(C)C1=C2[C@H]3CC[C@@H]4[C@@]5(C)CC[C@H](OC(=O)[C@H]6C[C@@H](C(=O)O)C6(C)C)C(C)(C)[C@@H]5CC[C@@]4(C)[C@]3(C)CC[C@@]2([C@@H](O)CNC[C@@H](C)NC(=O)c2ccc(Cl)cc2)CC1=O	p24 / ELISA	MT-2			92HT599	<1 µM
COc1c2ccoc2c(S(=O)(=O)Oc2ccc(F)cc2)c2oc(C)cc(=O)c12	cytopathic effect / MTS	CEM-SS			RF	0.000081 µM
CC(C)CCC[C@@H](C)[C@H]1CCC2C3CCC4C[C@@H](O[C@@H]5O[C@H](COS(=O)(=O)[O-])[C@@H](O[C@H]6O[C@H](COS(=O)(=O)[O-])[C@@H](O[C@H]7O[C@H](COS(=O)(=O)[O-])[C@@H](O[C@H]8O[C@H](COS(=O)(=O)[O-])[C@@H](OS(=O)(=O)[O-])[C@H](OS(=O)(=O)[O-])[C@H]8OS(=O)(=O)[O-])[C@H](OS(=O)(=O)[O-])[C@H]7OS(=O)(=O)[O-])[C@H](OS(=O)(=O)[O-])[C@H]6OS(=O)(=O)[O-])[C@H](OS(=O)(=O)[O-])[C@H]5OS(=O)(=O)[O-])CC[C@]4(C)C3CC[C@@]21C	p24 / ELISA / antigen	PBMC			HI92-206 isolate (X4/R5)	5 µg/mL
Cc1cccnc1CN(CCCCN)Cc1nccc2cc(Br)ccc12	flow cytometry	Jurkat cells				0.039 µM
CC(C)C1=C2[C@H]3CC[C@@H]4[C@@]5(C)CC[C@H](OC(=O)[C@H]6C[C@@H](C(=O)O)C6(C)C)C(C)(C)[C@@H]5CC[C@@]4(C)[C@]3(C)CC[C@@]2(CC(=O)NCc2ccc(N3CCCCC3)cc2)CC1=O	p24 / ELISA	MT-2			92HT599	<1 µM
CC(C)CN(C[C@@H](O)[C@H](Cc1ccccc1)NC(=O)O[C@H]1CO[C@H]2OCC[C@H]21)S(=O)(=O)c1ccc(C(=O)O)cc1	p24 / luminescence	MT-4			LAI	1000 µM
COc1cc(Cl)ccc1CNC[C@H](O)[C@@]12CC[C@]3(C)[C@H](CC[C@@H]4[C@@]5(C)CC[C@H](OC(=O)[C@H]6C[C@@H](C(=O)O)C6(C)C)C(C)(C)[C@@H]5CC[C@]43C)C1=C(C(C)C)C(=O)C2	p24 / ELISA	MT-2			92HT599	<1 µM
Cc1nnc(C(=O)N2CCC3(C2)OCCn2c3nc(C(=O)NCc3ccc(F)cc3-n3ncnc3C)c(O)c2=O)o1	luciferase / reporter gene	MT-2			NL4-3	≥0.1 µM
CC(C)C1=C2[C@H]3CC[C@@H]4[C@@]5(C)CC[C@H](OC(=O)[C@H]6C[C@@H](C(=O)O)C6(C)C)C(C)(C)[C@@H]5CC[C@@]4(C)[C@]3(C)CC[C@@]2(CC(=O)N(CCN(C)C)Cc2ccccc2Cl)CC1=O	p24 / ELISA	MT-2			92HT599	<1 µM
CN1c2ccccc2C2C1C=C(C#N)C(=O)N2c1ccc([N+](=O)[O-])cc1	GFP / fluorescence	HeLa			B-HXB2	0.17 µM
COc1c(C(=O)/C=C(/C)Nc2ccc([N+](=O)[O-])cc2)c(O)c(S(=O)(=O)Oc2ccc([N+](=O)[O-])cc2)c2occc12	cytopathic effect / MTS	CEM-SS			RF	0.000064 µM
CC1CC(C)CN(S(=O)(=O)c2ccccc2[N+](=O)[O-])C1	GFP / fluorescence	MT-4			B-HXB2	0.84 µM
COc1c(C(=O)/C=C(/C)Nc2ccccc2)c(O)c(S(=O)(=O)Oc2ccc([N+](=O)[O-])cc2)c2occc12	cytopathic effect / MTS	CEM-SS			RF	0.000072 µM
CC(C)CS[C@@H]1C=C[C@H](n2cnc3c(N)ncnc32)C1	cytopathic effect / syncytia / trypan blue	CEM			IIIB	>10 µg/mL
CC(C)C1=C2[C@H]3CC[C@@H]4[C@@]5(C)CC[C@H](OC(=O)[C@H]6C[C@@H](C(=O)O)C6(C)C)C(C)(C)[C@@H]5CC[C@@]4(C)[C@]3(C)CC[C@@]2(CC(=O)NCC(C)(C)NC(=O)c2ccc(O[C@@H]3CCOC3)cn2)CC1=O	p24 / ELISA	MT-2			92HT599	<1 µM
Cn1cc(C(=O)O)c(=O)c2cc(F)c(N3CC=C(c4ccccc4)CC3)c(C(F)(F)F)c21	ELISA	OM-10.1				33 µM
Nc1ccn([C@H]2CC[C@@H](CO)O2)c(=O)n1	luciferase / cell fusion	CEM/1G5 T			NL4-3	<1 µM
COc1ccc2c(CN(CCCCN)Cc3ncccc3C)nccc2c1	flow cytometry	Jurkat cells				0.89 µM
Cc1nnc(C(=O)NC(C)(C)c2nc(C(=O)NCc3ccc(F)cc3)c(O)c(=O)n2C)o1	luciferase / luminescence	TZM-bl			SF162	0.00427 µM
Cc1cccnc1CN(CCCCN)Cc1ccccn1	entry / luminescence	U87.CD4.CXCR4				0.18 µM
N#Cc1ccc(C(=O)C2Oc3ccccc3C3CC(c4ccc(C(=O)NC5CCCC5)cc4)=NN23)cc1	GFP / reporter gene	MT-4			LAI	<1 µM
CC1(C)OC(c2cnn(-c3ccccc3)n2)C(C2CO2)O1	cytopathic effect / MTS	CEM + CEM-SS			RF	>100 µM
CN(C)C(=O)N1CCC2(CC1)OCCCn1c2nc(C(=O)NCc2ccc(F)cc2)c(O)c1=O	luciferase / reporter gene	MT-2			NL4-3	0.001–0.01 µM
Nc1ccn([C@@H]2CS[C@H](CO)O2)c(=O)n1	single cycle	MAGI			BaL	2.6 µg/mL
Cc1nnc(-c2cccc(-c3cccc(C(=O)N4CCCCC4)c3)c2)o1	luminescence	TZM-bl	pseudotyped		CE1176	>30 µM
CC1(C)CC=C(c2cn(-c3nccc(C(=O)NC4CCC(N5CC6CCC(C5)O6)CC4)n3)c3ccc(F)c([C@H](OC(C)(C)C)C(=O)O)c23)CC1	luminescence	MT-4			NL4-3	0.0055 µM
CC1(C)OC(C(O)CN2CCCCC2)[C@H](c2cnn(-c3ccccc3)n2)O1	cytopathic effect / MTS	CEM + CEM-SS			RF	>100 µM
CN(C)C(=O)C(=O)N1CCC2(CC1)OCCn1c2nc(C(=O)NCc2ccc(F)cc2)c(O)c1=O	luciferase / reporter gene	MT-2			NL4-3	0.01–0.1 µM
COc1c(-c2cc(C)on2)c(O)c(S(=O)(=O)OC2CCCCC2)c2occc12	cytopathic effect / MTS	CEM-SS			RF	0.000057 µM
Cc1ncnn1-c1cc(F)ccc1CNC(=O)c1nc2n(c(=O)c1O)CCOC21CCN(C(=O)OCc2ccccc2)C1	luciferase / reporter gene	MT-2			NL4-3	0.01–0.1 µM
C[C@@H]1CCO[C@H]2Cn3cc(C(=O)NCc4ccc(F)cc4F)c(=O)c(O)c3C(=O)N12	luciferase / luminescence	TZM-bl		V72I		0.0025 µM
CCC[C@@]1(CCc2ccccc2)CC(O)=C([C@H](CC)c2cccc(NS(=O)(=O)c3ccc(C(F)(F)F)cn3)c2)C(=O)O1	reporter gene	MT-4		R41T K70E V77I/V	T14434	175 nM
Cc1nc2ccccc2c(-c2cc(F)c3c(c2C)CCCO3)c1[C@H](OC(C)(C)C)C(=O)O	luminescence	MT-4		D167E	NL4-3	0.021 µM
CN(C)C(=O)C(=O)N1CCC2(CC1)OCCCn1c2nc(C(=O)NCc2ccc(F)cc2)c(O)c1=O	luciferase / reporter gene	MT-2			NL4-3	0.01–0.1 µM
Cc1cn([C@H]2C[C@H](N=[N+]=[N-])[C@@H](CO)O2)c(=O)[nH]c1=O	cytopathic effect / MTS	CEM + CEM-SS			IIIB	0.003 µM
COc1c(-c2cc(C)[nH]n2)c(O)c(S(=O)(=O)Oc2ccc(F)cc2)c2occc12	cytopathic effect / MTS	CEM-SS			RF	0.000047 µM
Nc1ccn([C@H]2CC[C@@H](CO)O2)c(=O)n1	β-galactosidase			P203S L204I	NL4-3	0.646 µM

Repeating the final 4 entries:

compound | method | cell line | setting | mutations | strain | value
CN(C)C(=O)C(=O)N1CCC2(CC1)OCCCn1c2nc(C(=O)NCc2ccc(F)cc2)c(O)c1=O | luciferase / reporter gene | MT-2 |  |  | NL4-3 | 0.01–0.1 µM
Cc1cn([C@H]2C[C@H](N=[N+]=[N-])[C@@H](CO)O2)c(=O)[nH]c1=O | cytopathic effect / MTS | CEM + CEM-SS |  |  | IIIB | 0.003 µM
COc1c(-c2cc(C)[nH]n2)c(O)c(S(=O)(=O)Oc2ccc(F)cc2)c2occc12 | cytopathic effect / MTS | CEM-SS |  |  | RF | 0.000047 µM
Nc1ccn([C@H]2CC[C@@H](CO)O2)c(=O)n1 | β-galactosidase |  |  | P203S L204I | NL4-3 | 0.646 µM